For 1 substance, Km results are on record in paper PMC6208485, “Discovery of the first macrolide antibiotic binding protein in Mycobacterium tuberculosis: a new antibiotic resistance drug target” (Protein & Cell, 2018).

The series concerns Nc1ncnc2c1ncn2[C@@H]1O[C@H](COP(=O)(O)OP(=O)(O)OP(=O)(O)O)[C@@H](O)[C@H]1O. The series is described as follows: purified protein.

As a reminder, the Km is the concentration of substrate that gives half-maximal velocity. Take “MABP-1 (Rv3197) (Mycobacterium tuberculosis H37Rv)”: the Km worked out at 285 µM.
